Results of unrelated studies side by side (data: NIAID ChemDB).

Common to all: whole-cell or culture tests; species: Hepatitis C virus; cell line: Huh7; endpoint: EC50

Blank or dashed fields: not listed here. Lines come from different laboratories, so protocols vary. ECn is the concentration giving n% inhibition of infection, replication or growth. Two numbers with a dash give a range or band.

compound | strain | method | conditions | value
Nc1c(C(=O)N2CCOCC2)sc2nc(-c3ccccc3)cc(C(F)(F)F)c12 | - | MTT | - | 3.3 µM
C=C[C@H]1C[C@@]1(NC(=O)[C@@H]1C[C@@H](Oc2cc(-c3ccccc3)nc3cc(OC)ccc23)CN1C(=O)[C@@H](NC(=O)OC(C)(C)C)C(C)(C)C)C(=O)NS(=O)(=O)C1(CC#CCC)CC1 | 1b | replicon | - | <0.05 µM
COc1ccc(-c2cc(C(F)(F)F)c3c(N)c(C(N)=O)sc3n2)cc1 | - | luciferase / replicon | - | 4 µM
CNC(=O)c1c(-c2ccc(F)cc2)oc2cc(N3CCOCC3)c(OCc3cccc(C(=O)O)c3)cc12 | - | replicon | - | <10 µM
COc1c(C(C)(C)C)cc(-c2ccc[nH]c2=O)c2ncc(-c3ccc(NS(C)(=O)=O)cc3)cc12 | GT-1b Con1 | replicon | 40% human serum | 0.0056 µM
Nc1ncnc2c1ncn2[C@@H]1C[C@H](CO)[C@@H](CO)C12CC2 | - | luciferase | - | >50 µM
C=CC1C[C@@]1(NC(=O)[C@@H]1C[C@@H](Oc2cc(-c3ccccc3)nc3cc(OC)ccc23)CN1C(=O)[C@@H](NC(=O)Oc1ccccc1OC)C(C)(C)C)C(=O)NS(=O)(=O)C1(Cc2ccccc2)CC1 | 1b | replicon | - | 0.5–5 µM
C[C@@]1(O)[C@H](O)[C@@H](CO)O[C@H]1n1cnc2c(N)ncnc21 | - | replicon | - | 1.8 µM
Nc1nc(N2CCOCC2)c2nc(-c3ccc(C(F)(F)F)cc3Cl)cnc2n1 | - | - | - | 1–10 µM
COc1nc(N)nc2c1ncn2[C@@H]1O[C@H](COP(=O)(N[C@@H](C)C(=O)OCC(C)(C)C)Oc2cccc3ccccc23)[C@@H](O)[C@@]1(C)O | 1b | luciferase | 24 h | 0.01 µM
Nc1nc(N2CCOCC2)c2nc(-c3ccc(F)cc3Cl)cnc2n1 | - | - | - | 0.3–1 µM
CCOc1cc2c(C(=O)NC)c(-c3ccc(F)cc3)oc2cc1N(CC)CC | - | replicon | - | <1 µM
Nc1ccn([C@@H]2C[C@H](CO)[C@@H](O)C23CC3)c(=O)n1 | - | luciferase | - | 14.4 µM
CNC(=O)c1c(-c2ccccc2)oc2ccc(OCC(F)(F)F)cc12 | - | replicon | - | <30 µM
Nc1nc(N2CCOCC2)c2nc(-c3cc4ccccc4o3)cnc2n1 | - | - | - | 0.3–1 µM
COc1ccc(-c2nc(NC(=O)[C@@H](C)c3ccc(Cl)cc3)[nH]c2C)cc1S(C)(=O)=O | 1a | luciferase | - | 0.142 µM
C=CC1CC1(NC(=O)[C@@H]1C[C@@H](Oc2cc(-c3ccccc3)nc3cc(OC)ccc23)CN1C(=O)[C@@H](NC(=O)CC1CC1)C(C)(C)C)C(=O)NS(=O)(=O)C1(C)CC1 | 1b | replicon | - | <0.05 µM
CCC[C@H](NC(=O)[C@@H]1[C@H]2CCC[C@H]2CN1C(=O)[C@@H](NC(=O)[C@@H](NC(=O)c1cnccn1)C1CCCCC1)C(C)(C)C)C(=O)C(=O)NC1CC1 | - | replicon | 20% human serum | 1.4 µM
C=C[C@H]1C[C@@]1(NC(=O)[C@@H]1C[C@@H](Oc2cc(-c3ccccc3)nc3cc(OC)ccc23)CN1C(=O)[C@@H](NC(=O)O[C@@H]1CCOC1)C(C)(C)C)C(=O)NS(=O)(=O)C1(Cc2ccccc2)CC1 | 1b | replicon | - | 0.05–0.5 µM
CNC(=O)c1c(-c2ccc(F)cc2)oc2cc(N(CC(C)O)S(C)(=O)=O)c(OC(C)C)cc12 | - | replicon | - | <1 µM
Nc1nc(N2CCOCC2)c2nc(-c3ccc4c(c3)CC(=O)N4)cnc2n1 | - | - | - | 1–10 µM
CNC(=O)c1c(-c2ccc(F)cc2)oc2cc(S(=O)(=O)N3CCC(O)C3)c(OC(C)C)cc12 | - | replicon | - | <1 µM
CCOc1nc(N)nc2ncc(-c3ccc(N)cc3)nc12 | - | - | - | 1–10 µM
CCN(CC)C(=O)c1sc2nc(-c3ccccc3)cc(C(F)(F)F)c2c1N | - | MTT | - | 3.5 µM
CNC(=O)c1c(-c2ccc(F)cc2)oc2cc(N3CCC3)c(OC(C)C)cc12 | - | replicon | - | <1 µM
C=CC1CC1(NC(=O)[C@@H]1C[C@@H](Oc2cc(-c3ccccc3)nc3cc(OC)ccc23)CN1C(=O)[C@@H](NC(=O)OC(C)(C)C)C(C)(C)C)C(=O)NS(=O)(=O)C1(C(=O)c2ccccc2)CC1 | 1b | replicon | - | 0.05–0.5 µM
Cc1[nH]c(NC(=O)C(C)c2ccccc2)nc1-c1ccc(C(=O)O)c(S(C)(=O)=O)c1 | 1a | luciferase | - | >10 µM
CNC(=O)c1c(-c2ccc(O)cc2)oc2ccc(OC(C)C)cc12 | - | replicon | - | <10 µM
Nc1nc(N2CCOCC2)c2nc(-c3ccc(CN4CCOCC4)cc3)cnc2n1 | - | - | - | 1–10 µM
CCCC1(S(=O)(=O)NC(=O)[C@]2(NC(=O)[C@@H]3C[C@@H](Oc4cc(-c5ccccc5)nc5cc(OC)ccc45)CN3C(=O)[C@@H](NC(=O)OC(C)(C)C)C(C)(C)C)CC2C2CC2)CC1 | 1b | replicon | - | 0.05–0.5 µM
CNC(=O)c1c(-c2ccncc2)oc2ccc(OC)cc12 | - | replicon | - | <100 µM
C=C[C@H]1C[C@@]1(NC(=O)[C@@H]1C[C@@H](Oc2cc(-c3ccccc3)nc3cc(OC)ccc23)CN1C(=O)[C@@H](NC(=O)OC(C)(C)C)C(C)C)C(=O)NS(=O)(=O)C1(CCOC)CC1 | 1b | replicon | - | <0.05 µM
CCOc1nc(N)nc2ncc(-c3ccc(C)cc3)nc12 | - | - | - | 1–10 µM
COc1ccc(-c2nc(NC(=O)C(C)c3ccccc3)[nH]c2C)cc1S(C)(=O)=O | 1a | luciferase | - | 0.378 µM
CCOc1nc(N)nc2ncc(-c3ccc(O)cc3)nc12 | - | - | - | 1–10 µM
C=C[C@H]1C[C@@]1(NC(=O)[C@@H]1C[C@@H](Oc2cc(-c3ccccc3)nc3cc(OC)ccc23)CN1C(=O)[C@@H](NC(=O)OC1CCCC1)C(C)(C)C)C(=O)NS(=O)(=O)C1(C)CC1 | 1b | replicon | - | <0.05 µM

The last 4 rows once more:

CCOc1nc(N)nc2ncc(-c3ccc(C)cc3)nc12 ; value: 1–10 µM
COc1ccc(-c2nc(NC(=O)C(C)c3ccccc3)[nH]c2C)cc1S(C)(=O)=O ; strain: 1a ; method: luciferase ; value: 0.378 µM
CCOc1nc(N)nc2ncc(-c3ccc(O)cc3)nc12 ; value: 1–10 µM
C=C[C@H]1C[C@@]1(NC(=O)[C@@H]1C[C@@H](Oc2cc(-c3ccccc3)nc3cc(OC)ccc23)CN1C(=O)[C@@H](NC(=O)OC1CCCC1)C(C)(C)C)C(=O)NS(=O)(=O)C1(C)CC1 ; strain: 1b ; method: replicon ; value: <0.05 µM